Data as given in PubChem BioAssay AID1259414 (Drosophila RNAi Screening Center, 2018).
Assay: 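Fly genes that alter Wolbachia amount inside host cells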 (primary screen). Cell system: Drosophila JW18 cells infected with Wolbachia. Reagent: long dsRNA against Drosophila genes, 0.25 µg dsRNA per well of a 384-well plate. Timing: 5 days. Conditions: cells persistently infected with Wolbachia before knock-down; no added drug. Detection: 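Imaged fluorescence in situ signal for Wolbachia 23S rRNA per DAPI-counted host cell, given as a robust z-score within each plate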. Direction: Wolbachia per cell robust z: higher = more Wolbachia per host cell than the plate typical. Hit rule: 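Active if absolute robust z reaches 1.5 in two or more of three replicates, leaving out multi- or no-target dsRNAs, genes unexpressed in JW18 and A1 wells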.
In all, the deposit lists about 24,000 reagents; below is an unselected part of those with a known target gene and a result. Over the whole deposit, about 1,210 (5%) got an active call. 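Inactive calls also include excluded dsRNAs with several or no targets, genes unexpressed in JW18, and well A1, regardless of score.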 Names joined by + are all predicted targets of the reagent.

gene	PubChem SID	Wolbachia per cell robust z, rep 1	Wolbachia per cell robust z, rep 2	Wolbachia per cell robust z, rep 3	Outcome
DNAlig1	SID104184310	0.0209	-4.43	-0.0187	inactive
CG10013	SID104193967	0.132	-6.78	-5.96	inactive
Osi12	SID104191969	-4.23	0.253	0.563	inactive
sisA	SID104200166	0.164	0.777	-4.75	inactive
sisA	SID104207875	0.194	-2.21	-5.87	inactive
fz3	SID104198571	-1.62	0.0249	0.123	inactive
fz3	SID104208226	-0.565	0.45	0.406	inactive
CG15233	SID104184759	0.486	1.12	-0.161	inactive
CG15468	SID104197843	-0.0693	-2.17	-0.166	inactive
Spn42Dc	SID104184802	-0.573	-2.16	-0.0976	inactive
CG13023	SID104189695	0.585	-0.0515	-0.338	inactive
Pvf3	SID104182076	-0.106	-2.28	-1.01	inactive
Pvf3	SID104182077	-0.317	-1.11	-0.913	inactive
Pvf3	SID104182078	0.269	0.889	0.582	inactive
Pvf3	SID104182543	-0.901	-0.173	-0.986	inactive
Pvf3	SID104203718	-0.975	1.7	-0.024	inactive
Pvf3	SID104207185	1.16	0.557	0.0368	inactive
Ero1L	SID104188452	-1.21	-0.0637	-0.288	inactive
CG15422	SID104180228	1.22	-5.26	0.596	inactive
CG15422	SID104203784	0.0598	0.79	0.651	inactive
CG3793	SID104181774	-0.644	-3.21	-1.53	active
CG1847	SID104199602	0.0741	0.854	0.382	inactive
Orc5	SID104183182	-0.0297	-0.337	-0.517	inactive
Orc5	SID104206751	0.63	0.274	-1.29	inactive
Nct	SID104195964	0.281	-0.803	-0.288	inactive
Idh	SID104190571	0.141	1.03	1.14	inactive
Hsp70Bbb + Hsp70Bc + Hsp70Bb + 1 more	SID104201039	-2.57	0.908	0.882	inactive
CG17028	SID104190031	0.171	-0.385	0.235	inactive
CG17028	SID104208394	0.446	-1.9	-1.14	inactive
CG17028	SID104219125	0.921	0.721	-1.23	inactive
sp3	SID104196146	-3.08	0.223	-5.36	active
sp3	SID104218967	0.84	0.0221	0.399	inactive
SPE	SID104194927	-1.28	-1.18	-0.0874	inactive
SPE	SID104204001	-1.29	-0.567	-1.04	inactive
Abca3	SID104200338	-0.896	0.428	0.66	inactive
DIP-delta	SID104190006	-0.933	0.154	0.321	inactive
DIP-delta	SID104190242	-0.369	-4.03	0.856	inactive
psd	SID104182923	-0.462	-0.67	0.165	inactive
psd	SID104203961	-0.0809	-0.242	0.368	inactive
Glg1	SID104191607	-1.3	-0.368	-1.2	inactive
Glg1	SID104191608	0.351	0.327	-0.895	inactive
Glg1	SID104191609	-0.915	-0.317	-0.231	inactive
nero	SID104195224	-0.466	-8.01	0.051	inactive
CG11413 + CG4622	SID104183901	0.364	-5.5	-0.236	inactive
Nrk	SID104187272	-1.03	-0.716	0.0231	inactive
TotX	SID104201742	0.851	0.554	1.3	inactive
TotX	SID104207652	0.469	0.916	0.306	inactive
l(1)G0289	SID104198007	-0.262	0.408	-0.513	inactive
l(1)G0289	SID104207744	-0.00915	-0.379	0.331	inactive
CG34250	SID104216326	-3.93	0.173	-1.17	inactive
ChAT	SID104196401	-0.154	0.578	-5.64	inactive
ChAT	SID104202125	-0.703	-1.76	-1.47	inactive
CG10359	SID104187948	-1.22	0.172	0.612	inactive
CG31436	SID104194453	-5.03	-0.793	0.573	inactive
CG31436	SID104203266	0.604	0.135	-0.112	inactive
dany	SID104183933	0.968	-2.91	-0.0177	inactive
CG9861	SID104184368	-0.333	-0.0567	-0.154	inactive
CG9861	SID104207420	-2.8	-0.911	-1.01	inactive
CG8236	SID104196191	0.693	2.08	1.51	inactive
CG8236	SID104204865	0.747	1.11	0.396	inactive
CG13085	SID104181981	-0.0138	-1.13	0.532	inactive
CG13085	SID104206643	0.399	0.618	-0.478	inactive
CG9184	SID104188428	-3.04	-2.16	-1.68	inactive
CG9184	SID104201727	1.12	-1.57	-1.04	inactive
CG9184	SID104202878	0.604	1.22	1.76	inactive
CG7924	SID104190723	-0.731	0.151	-0.167	inactive
CG7924	SID104204205	-1.04	-0.614	-0.396	inactive
Rab23	SID104192097	-3.05	-0.233	-1.88	active
Rab23	SID104203885	0.73	-0.677	1.1	inactive

Active calls, among the entries above:
gene	PubChem SID	Wolbachia per cell robust z, rep 1	Wolbachia per cell robust z, rep 2	Wolbachia per cell robust z, rep 3	Outcome
CG3793	SID104181774	-0.644	-3.21	-1.53	active
sp3	SID104196146	-3.08	0.223	-5.36	active
Rab23	SID104192097	-3.05	-0.233	-1.88	active
